Measured values from several laboratories, pooled; numbers as filed in NIAID ChemDB.

Common to all: tests in culture; organism: Candida albicans

A number after MIC or MFC names an inhibition level or a share of isolates. a–b is a range or a potency band. An empty or dashed field is not shown. Neighbouring rows are from separate reports. ECn: concentration that inhibits the pathogen or its effect by n%.

SMILES	setting	strain	method	endpoint	value
Cc1c(O)cccc1C(=O)N[C@@H](CSc1ccccc1)[C@H](O)CN1C[C@H]2CCCC[C@H]2C[C@H]1C(=O)NC(C)(C)C	-	I83A	-	MIC	64 µg/mL
O=S(=O)(O)c1cc(S(=O)(=O)O)c2cc(O)ccc2c1	-	-	agar diffusion	MIC	200 µg/mL
CC1CCCCc2c(O)cccc2/C(=C(O)/C=C/C=C/C=C/C(=O)O)C(=O)O1	-	-	-	MIC	>64 µg/mL
CCCCc1ncc(C(N)=S)nc1SC	-	ATCC 44859	-	MIC	>31.25 µg/mL
C[C@H]1[C@H](O)[C@@H](C)/C=C/C=C/C=C/C=C/C=C/C=C/C=C/[C@H](O[C@@H]2O[C@H](C)[C@@H](O)[C@H](N)[C@@H]2O)C[C@@H]2O[C@](O)(C[C@@H](O)C[C@@H](O)CC[C@H](O)[C@@H](O)C[C@@H](O)CC(=O)O[C@H]1C)C[C@H](O)[C@H]2C(=O)O	-	ATCC64551	-	MIC	0.5 µg/mL
CC[C@H]1OC(=O)C[C@@H](O)[C@H](C)[C@@H](OC2OC(C)C(O)C(N(C)C)C2O)[C@@H](CCOc2ccccc2)C[C@@H](C)C(=O)/C=C/C=C/[C@@H]1COC1OC(C)C=CC1OC	-	-	-	MIC	50 µg/mL
CCCCCCCCCCn1cc[n+](COCCOC[n+]2ccn(CCCCCCCCCC)c2)c1	-	ATCC 90028	agar diffusion	MIC100	17 µM
CCC(C)CC(C)CCCCCCCCC(=O)N[C@H]1C[C@@H](O)[C@@H](OCCN)NC(=O)[C@@H]2C[C@@H](O)CN2C(=O)[C@H]([C@H](O)CCN)NC(=O)[C@H]([C@H](O)[C@@H](O)c2ccc(O)cc2)NC(=O)[C@@H]2C[C@@H](O)CN2C(=O)[C@H]([C@@H](C)O)NC1=O	-	40 isolates	-	MIC	64 µg/mL
CCCCCCCCC/C=C/C(O)CC(O)CC(=O)OC1CC(OC(CC)C(C)C(O)C(C)C(O)C(C)C2OC(=O)/C=C/C(C)C(O)CC(O)CCCC(O)CCC(C)C(OC3OC(CO)C(O)C(O)C3O)C(=O)C3(O)OC(CC(O)CC(O)CC(O)CCCC(O)C4OC4C2C)CC(O)C3O)OC(C)C1OC	-	IFO 1594	-	MIC	1.9 µg/mL
CCCCCCCCSc1cc(C(N)=S)ccn1	-	3a	-	MIC	12.5 µg/mL
Cc1c(C(=O)N/N=C/c2ccc(F)cc2)nnn1-c1ccnc2c(C(F)(F)F)cccc12	-	-	-	MIC	25 µg/mL
CSc1nc(C(N)=S)cnc1CC(C)C	-	ATCC 44859	-	MIC	>31.25 µg/mL
Nc1c(S(=O)(=O)O)cc(S(=O)(=O)O)c2cccc(O)c12	-	-	agar diffusion	MIC	300 µg/mL
COC(=O)[C@@]1(C)CCC[C@]2(C)C3CC(=O)OCC3C=C[C@@H]12	-	CECT 1394	-	MIC	25–50 µg/mL
CC[C@H](C)n1ncn(-c2ccc(N3CCN(c4ccc(OC[C@@H]5CO[C@@](Cn6cncn6)(c6ccc(F)cc6F)C5)cc4)CC3)cc2)c1=O	-	C-43	-	MIC	0.0039 µg/mL
CCCCc1ncc(C(N)=O)nc1Sc1ccccc1	-	ATCC 44859	-	MIC	>31.25 µg/mL
C=C1/C=C(\C)[C@H](CC)OC(=O)[C@H](C)C(=O)C(O)(CO)C/C(OC)=C/[C@@H](C)C1	-	MY1055	-	MIC	4 µg/mL
CCCCCn1cc[n+](COCCOC[n+]2ccn(CCCCC)c2)c1	-	ATCC 90028	agar diffusion	MIC100	712 µM
C[C@@]12CCC[C@]3(C)C4=CC(=O)OC[C@]45O[C@@H]5C(OC1=O)[C@@H]23	-	CECT 1394	-	MIC	32 µg/mL
N#Cc1ccc(NC(=O)CSc2nnc(-c3ccc4ncccc4c3)o2)cc1	-	-	agar	MIC	100 µg/mL
OC[C@H]1OC(Oc2cc(/C=C/c3ccc(O)cc3)cc(OC3O[C@H](CO)[C@H](O)[C@@H](O)[C@@H]3O)c2)[C@@H](O)[C@H](O)[C@H]1O	-	ATCC 9002	XTT / absorbance	MIC	128 µg/mL
COc1ccc(/C=C/C(=O)c2nnn(-c3ccnc4c(C(F)(F)F)cccc34)c2C)cc1	-	-	-	MIC	25 µg/mL
Nc1cc(S(=O)(=O)O)cc2c(S(=O)(=O)O)ccc(S(=O)(=O)O)c12	-	-	agar diffusion	MIC	100 µg/mL
CCOc1ccc2nc(NC(=O)CSc3nnc(-c4ccc5ncccc5c4)o3)sc2c1	-	-	agar	MIC	12.5 µg/mL
Cc1c(C(=O)N/N=C/c2ccc(Cl)cc2)nnn1-c1ccnc2c(C(F)(F)F)cccc12	-	-	-	MIC	12.5 µg/mL
CCCSc1cc(C(N)=S)ccn1	-	176	-	MFC	200 µg/mL
C[C@@H](n1ccn(-c2ccc(F)cc2)c1=O)C(O)(Cn1cncn1)c1ccc(F)cc1F	-	TA	-	MIC	<0.016 µg/mL
CCCCCCCCCn1cc[n+](COCCOC[n+]2ccn(CCCCCCCCC)c2)c1	-	ATCC 90028	agar diffusion	MIC100	2 µM
C[C@@H](N1CCN(c2ccc(OC(F)(F)C(F)F)cc2)C1=O)C(O)(Cn1cncn1)c1ccccc1F	-	TIMM1756	-	MIC	<0.016 µg/mL
COc1cc(CCCOC(=O)c2ccccc2)cc(OC)c1O	-	-	-	EC50	11.41 µg/mL
CCCCCSc1cc(C(N)=S)ccn1	-	3a	-	MFC	100 µg/mL
CCCCSc1nc(C(N)=O)cnc1CCCC	-	ATCC 44859	-	MIC	>31.25 µg/mL
O=C(CSc1nnc(-c2ccc3ncccc3c2)o1)Nc1ccc(Cl)cc1	-	-	agar	MIC	100 µg/mL
CN1CCN(c2ccc3nc(-c4ccc5nc(-c6ccc(O)cc6)[nH]c5c4)[nH]c3c2)CC1	-	RO99	-	MIC50	12 µM
C[C@]12C=C[C@H]3[C@@](C)(C(=O)O)CCC[C@]3(C)C1CC(=O)O2	-	CECT 1394	-	MIC	>100 µg/mL
CCCCSc1nc(C(N)=O)cnc1CC(C)C	-	ATCC 44859	-	MIC	>31.25 µg/mL
CCCCCCCCCC(O)CC(=O)CCc1ccc(O)c(OC)c1	-	CN1A	-	MIC	750 µg/mL
C[C@@H](N1CCN(c2ccc(OC(F)(F)C(F)F)cc2)C1=O)C(O)(Cn1cncn1)c1ccc(F)cc1F	-	TA	-	MIC	<0.016 µg/mL
Cc1ccsc1/C=N/NC(=O)c1nnn(-c2ccnc3c(C(F)(F)F)cccc23)c1C	-	-	-	MIC	6 µg/mL
COc1ccc2nc(NC(=O)CSc3nnc(-c4ccc5ncccc5c4)o3)sc2c1	-	-	agar	MIC	25 µg/mL
CCC(C)CC(C)CCCCCCCCC(=O)N[C@H]1C[C@@H](O)[C@@H](OCCN)NC(=O)[C@@H]2C[C@@H](O)CN2C(=O)[C@H]([C@H](O)CC(N)=O)NC(=O)[C@H]([C@H](O)[C@@H](O)c2ccc(O)cc2)NC(=O)[C@@H]2C[C@@H](O)CN2C(=O)[C@H]([C@@H](C)O)NC1=O	-	40 isolates	-	MIC	32 µg/mL
CCCCCCCCCCCCn1cc[n+](COCCCCCCOC[n+]2ccn(CCCCCCCCCCCC)c2)c1	-	ATCC 90028	agar diffusion	MIC100	15 µM
CC(=O)Nc1ccc2nc(NC(=O)CSc3nnc(-c4ccc5ncccc5c4)o3)sc2c1	-	-	agar	MIC	50 µg/mL
Nc1[nH]c(=O)ncc1F	48 h	ATCC 90028	broth dilution	MIC	0.125 µg/mL
CO[C@H]1OC(=O)C=C2C1=CC1OC(=O)[C@@]3(C)CCC[C@@]2(C)[C@@H]13	-	CECT 1394	-	MIC	<3.12 µg/mL
CCCCSc1nc(C(N)=O)cnc1C(C)(C)C	-	ATCC 44859	-	MIC	>31.25 µg/mL
CCC(C)n1ncn(-c2ccc(N3CCN(c4ccc(OC[C@@H]5CO[C@@](Cn6cncn6)(c6ccc(F)cc6F)C5)cc4)CC3)cc2)c1=O	-	C-43	-	MIC	0.0039 µg/mL
CC[C@H]1OC(=O)C[C@@H](O)[C@H](C)[C@@H](OC2OC(C)C(O)C(N(C)C)C2O)[C@@H](CCN2CC(C)CC(C)C2)C[C@@H](C)C(=O)/C=C/C=C/[C@@H]1COC1OC(C)C=CC1OC	-	-	-	MIC	5 µg/mL
Nc1ccc2cc(S(=O)(=O)O)cc(O)c2c1	-	-	agar diffusion	MIC	300 µg/mL
Cc1c(C(=O)/C=C/c2ccc([N+](=O)[O-])cc2)nnn1-c1ccnc2c(C(F)(F)F)cccc12	-	-	-	MIC	12.5 µg/mL
CC[C@H]1OC(=O)C[C@@H](O)[C@H](C)[C@@H](OC2OC(C)C(O)C(N(C)C)C2O)[C@@H](CCN2CC(C)CC(C)C2)C[C@@H](C)C(=O)/C=C/C=C/[C@@H]1COC1CCOCC1	-	-	-	MIC	1.25 µg/mL
COC(=O)C[C@H]1C(=O)C=C[C@@H]2[C@]1(C)CCC[C@]2(C)C(=O)OC	-	CECT 1394	-	MIC	>100 µg/mL
CC[C@H]1OC(=O)C[C@@H](O)[C@H](C)[C@@H](OC2OC(C)C(O)C(N(C)C)C2O)[C@@H](CCN2CC(C)CC(C)C2)C[C@@H](C)C(=O)/C=C/C=C/[C@@H]1CSc1ncccn1	-	-	-	MIC	10 µg/mL
O=C(CSc1nnc(-c2ccc3ncccc3c2)o1)Nc1ccc(I)cc1	-	-	agar	MIC	100 µg/mL
Nc1cccc(S(=O)(=O)O)c1	-	-	agar diffusion	MIC	300 µg/mL
CCCCSc1nc(C(N)=O)cnc1CCC	-	ATCC 44859	-	MIC	>31.25 µg/mL
CCC(C)CC(C)CCCCCCCCC(=O)N[C@H]1C[C@@H](O)[C@H](NCCN)NC(=O)[C@@H]2[C@@H](O)CCN2C(=O)[C@H]([C@H](O)CCN)NC(=O)[C@H]([C@H](O)[C@@H](O)c2ccc(O)cc2)NC(=O)[C@@H]2C[C@@H](O)CN2C(=O)[C@H]([C@@H](C)O)NC1=O	-	206 isolates	-	MIC90	0.125 µg/mL
Cc1c(C(=O)/C=C/c2ccc(F)cc2)nnn1-c1ccnc2c(C(F)(F)F)cccc12	-	-	-	MIC	25 µg/mL
N#Cc1ccc2nc(NC(=O)CSc3nnc(-c4ccc5ncccc5c4)o3)sc2c1	-	-	agar	MIC	100 µg/mL
CC[C@H]1OC(=O)C[C@@H](O)[C@H](C)[C@@H](OC2OC(C)C(O)C(N(C)C)C2O)[C@@H](CCN2CC(C)CC(C)C2)C[C@@H](C)C(=O)/C=C/C=C/[C@@H]1COS(=O)(=O)c1ccccc1	-	-	-	MIC	1.25 µg/mL
O=C(CSc1nnc(-c2ccc3ncccc3c2)o1)Nc1ccc(F)cc1	-	-	agar	MIC	100 µg/mL
CSc1nc(C(N)=O)cnc1C(C)(C)C	-	ATCC 44859	-	MIC	>31.25 µg/mL
CC[C@H]1OC(=O)C[C@@H](O)[C@H](C)[C@@H](OC2OC(C)C(O)C(N(C)C)C2O)[C@@H](CCN2CC(C)CC(C)C2)C[C@@H](C)C(=O)/C=C/C=C/[C@@H]1CI	-	-	-	MIC	2.5 µg/mL

Again, the opening 8 rows:

Cc1c(O)cccc1C(=O)N[C@@H](CSc1ccccc1)[C@H](O)CN1C[C@H]2CCCC[C@H]2C[C@H]1C(=O)NC(C)(C)C ; strain: I83A ; endpoint: MIC ; value: 64 µg/mL
O=S(=O)(O)c1cc(S(=O)(=O)O)c2cc(O)ccc2c1 ; method: agar diffusion ; endpoint: MIC ; value: 200 µg/mL
CC1CCCCc2c(O)cccc2/C(=C(O)/C=C/C=C/C=C/C(=O)O)C(=O)O1 ; endpoint: MIC ; value: >64 µg/mL
CCCCc1ncc(C(N)=S)nc1SC ; strain: ATCC 44859 ; endpoint: MIC ; value: >31.25 µg/mL
C[C@H]1[C@H](O)[C@@H](C)/C=C/C=C/C=C/C=C/C=C/C=C/C=C/[C@H](O[C@@H]2O[C@H](C)[C@@H](O)[C@H](N)[C@@H]2O)C[C@@H]2O[C@](O)(C[C@@H](O)C[C@@H](O)CC[C@H](O)[C@@H](O)C[C@@H](O)CC(=O)O[C@H]1C)C[C@H](O)[C@H]2C(=O)O ; strain: ATCC64551 ; endpoint: MIC ; value: 0.5 µg/mL
CC[C@H]1OC(=O)C[C@@H](O)[C@H](C)[C@@H](OC2OC(C)C(O)C(N(C)C)C2O)[C@@H](CCOc2ccccc2)C[C@@H](C)C(=O)/C=C/C=C/[C@@H]1COC1OC(C)C=CC1OC ; endpoint: MIC ; value: 50 µg/mL
CCCCCCCCCCn1cc[n+](COCCOC[n+]2ccn(CCCCCCCCCC)c2)c1 ; strain: ATCC 90028 ; method: agar diffusion ; endpoint: MIC100 ; value: 17 µM
CCC(C)CC(C)CCCCCCCCC(=O)N[C@H]1C[C@@H](O)[C@@H](OCCN)NC(=O)[C@@H]2C[C@@H](O)CN2C(=O)[C@H]([C@H](O)CCN)NC(=O)[C@H]([C@H](O)[C@@H](O)c2ccc(O)cc2)NC(=O)[C@@H]2C[C@@H](O)CN2C(=O)[C@H]([C@@H](C)O)NC1=O ; strain: 40 isolates ; endpoint: MIC ; value: 64 µg/mL